From publication PMC6950336, “Co-Occurrence of DON and Emerging Mycotoxins in Worldwide Finished Pig Feed and Their Combined Toxicity in Intestinal Cells” (Toxins, 2019)
Where two headings read alike, the source gives them in different places.

Tested on: IPEC-1 cells
[1] = ratio 3, highest concentration(s): DON 50 µM + EMO 5 µM / ENN-B 17.2 µM / BEA 2.3 µM / ENN-A1 6.5 µM, ENN-B1 6 and 18 µM

| Substance | Toxicity of the combination of DON and the emerging mycotoxin [1] | Toxicity of the combination of DON and the emerging mycotoxin (ratio 2, highest concentration: DON 50 µM + ENN-B1 4.1 µM / ENN-B 3.6 µM / ENN-A1 1.7 µM) |
| --- | --- | --- |
| Beauvericin | higher than that of BEA alone, but lower than that of DON alone | – |
| Enniatin A1 | higher than the toxicity of ENN-A1 alone, but lower than the toxicity of DON alone | higher than the toxicity of ENN-A1 alone, but still lower than the toxicity of DON alone |
